Compound potency records, mixed from different reports. Data source: NIAID ChemDB in PubChem.

Shared fields: growth or infection tests

Two numbers with a dash give a range or band. A number after MIC or MFC names an inhibition level or a share of isolates. Inhibition is in % at the dose shown (toxicity tests: loss of growth or viability). ECn: concentration that inhibits the pathogen or its effect by n%. Conditions beyond the fields shown may differ between rows. Blank or dashed fields: not listed here.

smiles,measure,strain or isolate,organism,cells,setting,tested at,method,value
C/C=C\[C@@H]1C[C@H](C(=O)O)N[C@H]1[C@@H](NC(C)=O)[C@](C)(CCC)OC,EC50,Isolate G42,Influenza B virus,MDCK,,,plaque count,<0.01 µg/mL
C[C@@H](NC(=O)c1c2n(c(=O)n1C1CC1)CCN(C(=O)c1ccc(Br)c(Cl)c1)C2)c1ccccc1,EC50,,Hepatitis B virus,HepG2.117,,,PCR,0.5–5 µM
Nc1ccc2cc(S(=O)(=O)O)cc(S(=O)(=O)O)c2c1,inhibition,,Herpes simplex virus,Human amnion AV3 cells,,10 µg/mL,cytopathic effect,0%
Nc1nc2c(ncn2C=C2CC2CO)c(=O)[nH]1,EC50,VR5611 (ganciclovir-susceptible),Human cytomegalovirus,,,,plaque count,1.9 µM
CCc1nc2cc(F)ccn2c1C(=O)NCc1ccc(N2CCN(c3ccc(OC(F)(F)F)cc3)[C@@H](C)C2)c(F)c1F.Cl,inhibition,,Mycobacterium avium,,,0.011 µM,fluorescence,85%
CC(C)(O)c1cn(-c2cccc([N+](=O)[O-])c2)nn1,inhibition,URM 4802,Candida krusei,,,2048 µg/mL,broth dilution,0%
CCC(CC)[C@H](NC(C)=O)[C@@H]1C[C@@H](C(=O)O)C[C@H]1N=C(N)N,EC50,Influenza A/Virginia/2/88R (H3N2),Influenza A virus,MDCK,,,,<0.01 µM
OC[C@H]1O[C@@H](n2c(Br)nc3cc(Cl)c(Cl)cc32)[C@H](O)[C@@H]1O,EC50,9330REC5 (HIS520GLU),Human cytomegalovirus,MRC-5,,,hybridisation,0.7 µM
O=S(=O)([O-])c1ccc2c(O)cc(S(=O)(=O)[O-])cc2c1,inhibition,,Herpes simplex virus,Human amnion AV3 cells,,10 µg/mL,cytopathic effect,0%
CCCCCCCCCCCCOC(=O)[C@]1(O)C[C@@H](O)[C@@H](O)[C@H](OC(=O)/C=C/c2ccc(O)c(O)c2)C1,MIC50,CBS 112803,Aspergillus westerdijkiae,,,,absorbance,2400 µM
Cc1nn2ccc(Br)cc2c1C(=O)NCc1ccc(N2CCN(c3ccc(OC(F)(F)F)cc3)[C@@H](C)C2)c(F)c1.Cl,inhibition,,Mycobacterium avium,,,0.066 µM,fluorescence,85%
Cc1cn([C@@H]2O[C@H](CO)[C@@H](O)[C@@H]2F)c(=O)nc1N,inhibition,KANNO,Varicella zoster virus,HELF,,0.1 µg/mL,plaque count,100%
O=S(=O)([O-])c1ccc2c(NS(=O)(=O)c3ccccc3)cc(S(=O)(=O)[O-])cc2c1,inhibition,,Herpes simplex virus,Human conjunctiva cells,,10 µg/mL,cytopathic effect,0%
CC(C)(O)c1cn(-c2ccc([N+](=O)[O-])cc2)nn1,inhibition,URM 4263,Candida krusei,,,2048 µg/mL,broth dilution,0%
Cc1coc2ccc(-n3c(C(=O)NCc4ccccc4)c4n(c3=O)CCN(C(=O)c3ccc(Br)c(Cl)c3)C4)cc12,EC50,,Hepatitis B virus,HepG2.117,,,PCR,0.1–0.5 µM
Oc1cccc(C=Nc2ccccc2O)c1,MIC99,28JF,Cryptococcus neoformans,,,,,5.7 µg/mL
Fc1ccc(-n2c(=S)oc3ccc(Br)cc3c2=S)cc1,MIC,My 235/80,Mycobacterium kansasii,,14 d,,,8 µM
O=c1[nH]c(=O)n([C@H]2C[C@H](O)[C@@H](CO)O2)cc1/C=C/Br,inhibition,Ohtomo,Varicella zoster virus,HELF,,0.01 µg/mL,plaque count,100%
O=C(Nc1ccc2cc(S(=O)(=O)[O-])cc(S(=O)(=O)[O-])c2c1)c1ccccc1,inhibition,TYPE 3,Adenovirus,Human amnion AV3 cells,,50 µg/mL,cytopathic effect,0%
Oc1ccc(O)c(C=Nc2ccccc2O)c1,MIC,96806,Cryptococcus neoformans,,,,broth dilution,11.3 µg/mL
CCCC(CCC)C(NC(C)=O)C1CC(C(=O)O)CC1N=C(N)N,EC50,Influenza A/Johannesburg/33/94 (H3N2),Influenza A virus,MDCK,,,,0.05 µM
O=c1oc2ccc(F)cc2c(=S)n1-c1cccc(F)c1,MIC,6509/96,Mycobacterium kansasii,,14 d,,,16 µM
CCC(CC)[C@H](NC(C)=O)[C@@H]1[C@H](O)[C@@H](C(=O)O)C[C@H]1N=C(N)N,EC50,H1N1 A/PR/8/34,Influenza A virus,MDCK,,,visual reading,0.21 µM
Cc1cc(-c2ccc(N=Nc3ccc4c(S(=O)(=O)O)cc(S(=O)(=O)O)c(N)c4c3O)c(C)c2)ccc1N=Nc1ccc2c(S(=O)(=O)O)cc(S(=O)(=O)O)c(N)c2c1O,inhibition,,Herpes simplex virus,Human amnion AV3 cells,,5 µg/mL,cytopathic effect,10%
CCOC(=O)c1c(C)nc(NCCCCNc2ccnc3cc(Cl)ccc23)nc1-c1ccccc1[N+](=O)[O-],MIC99,1913 ER,Cryptococcus gattii,,,,,8 µg/mL
Cc1cc(CCCOc2c(C)cc(-c3noc(C(F)(F)F)n3)cc2C)on1,EC50,Isolate 37,Rhinovirus,OHIO HELA-I,,,cytopathic effect / visual reading,0.05 µg/mL
C[C@H](NC(=O)c1c2n(c(=O)n1-c1ccc(-n3cccn3)cc1)CCN(C(=O)c1ccc(Br)c(Cl)c1)C2)c1ccccc1F,EC50,,Hepatitis B virus,HepG2.117,,,PCR,0.5–5 µM
O=c1[nH]c(=O)n([C@@H]2O[C@H](CO)[C@@H](O)[C@@H]2O)cc1/C=C/Br,inhibition,HIRAI,Varicella zoster virus,HELF,,0.01 µg/mL,plaque count,100%
COc1ccn2nc(C)c(C(=O)NCc3cc(F)c(N4CCC(c5ccc(OC(F)(F)F)cc5)CC4)c(F)c3)c2c1.Cl,inhibition,,Mycobacterium avium,,,0.019 µM,fluorescence,85%
CCC(C)CC(C)CCCCCCCCC(=O)N[C@H]1C[C@@H](O)[C@H](NCCN)NC(=O)[C@@H]2[C@@H](O)CCN2C(=O)[C@H]([C@H](O)CCN)NC(=O)[C@H]([C@H](O)[C@@H](O)c2ccc(O)cc2)NC(=O)[C@@H]2C[C@@H](O)CN2C(=O)[C@H]([C@@H](C)O)NC1=O,MIC,CBS 11545,Cryptococcus gattii,,,,broth dilution,16 µg/mL
Cc1ccn2c(C(=O)NCc3ccc(C4CCN(c5ccc(OC(C)C)cc5)CC4)c(F)c3)c(C)nc2c1,inhibition,,Mycobacterium avium,,,0.1 µM,fluorescence,85%
C=CCc1ccc(O)c(OC)c1,MIC90,3220,Candida tropicalis,,,,turbidity,500 µg/mL
Cc1ccn2c(C(=O)NCc3ccc(C4CCN(c5ccc(OCC(F)(F)F)cc5)CC4)c(F)c3)c(C)nc2c1,inhibition,,Mycobacterium avium,,,0.038 µM,fluorescence,85%
Nc1nc2c(ncn2COC(CO)CO)c(=O)[nH]1,EC50,XBAF.4 (alaalacysarg593DEL),Human cytomegalovirus,MRC-5,,,hybridisation,4.1 µM
OC[C@H]1O[C@@H](n2c(Br)nc3cc(Cl)c(Cl)cc32)[C@H](O)[C@@H]1O,EC95,TOWNE,Human cytomegalovirus,,,,virus yield,0.18 µM
O=C(NCc1ccc(Cl)cc1)c1c[nH]c2ccc(CCCO)cc2c1=O,EC50,WAT,Human cytomegalovirus,,,,plaque count,2.2 µM
CCN=C1NC2C(OC(CO)C(O)C2O)S1,inhibition,,Kaposi sarcoma virus,HEK 293,,0.001 µM,flow cytometry,8%
CC(C)N=C(N)/N=C(\N)NOCCCOc1cc(Cl)c(Cl)cc1Cl,MIC,1625,Mycobacterium avium complex,,,,,32 µg/mL
O=c1oc2ccc(Cl)cc2c(=S)n1-c1ccc(C(F)(F)F)cc1,MIC,6509/96,Mycobacterium kansasii,,14 d,,,16 µM
COC1C=CC(n2c(C(=O)NCc3cccc(F)c3)c3n(c2=O)CCN(C(=O)c2ccc(Br)c(Cl)c2)C3)=CC1,EC50,,Hepatitis B virus,HepG2.117,,,PCR,0.1–0.5 µM
O=S(=O)([O-])c1ccc(NS(=O)(=O)c2ccccc2)c2c(S(=O)(=O)[O-])cccc12,inhibition,,Herpes simplex virus,Human conjunctiva cells,,10 µg/mL,cytopathic effect,0%
CCc1cn([C@@H]2O[C@H](CO)[C@@H](O)[C@@H]2O)c(=O)[nH]c1=O,inhibition,HIRAI,Varicella zoster virus,HELF,,10 µg/mL,plaque count,0%
CC(C)(O)c1cn(-c2cccc3ccccc23)nn1,inhibition,URM 934,Candida krusei,,,2048 µg/mL,broth dilution,0%
O=C(NNC(=O)Nc1cc(C(F)(F)F)cc(C(F)(F)F)c1)Nc1ccccc1,MIC,ES142,Escherichia coli,,,,,>200 µM
FC(F)(F)c1ccc(-n2c(=S)oc3ccc(Cl)cc3c2=S)cc1,MIC,6509/96,Mycobacterium kansasii,,21 d,,,16 µM
CCOC(=O)c1ccc(OCCC2CCN(c3ccc(C)nn3)CC2)cc1,EC50,K6579 (ICAM-1 receptor group 100),Rhinovirus,KB,,,neutral red,0.027 µM
Cc1nc(NCCCCNc2ccnc3cc(Cl)ccc23)nc(-c2ccccc2[N+](=O)[O-])c1C(=O)OC(C)C,MIC99,ATCC 24065,Cryptococcus gattii,,,,,8 µg/mL
CC(C)c1nc2ccccc2c(=O)n1NC(=O)Nc1cc(C(F)(F)F)cc(C(F)(F)F)c1,MIC,ES142,Escherichia coli,,,,,>300 µM
Cc1ccc(-n2cc(C(C)(C)O)nn2)cc1C,inhibition,URM 4984,Candida parapsilosis,,,2048 µg/mL,broth dilution,0%
O=S(=O)([O-])c1cc(O)c2ccccc2c1,inhibition,,Herpes simplex virus,Human amnion AV3 cells,,5 µg/mL,cytopathic effect,0%
N#Cc1cc([N+](=O)[O-])ccc1Oc1ccc(Cl)c(Cl)c1,inhibition,TYPE A21,Coxsackie virus,VERO,,0.048 µg/mL,,68%
Nc1ccc(S(=O)(=O)[O-])c2c(S(=O)(=O)[O-])ccc(O)c12,inhibition,TYPE 3,Adenovirus,Human amnion AV3 cells,,5 µg/mL,cytopathic effect,20%
CCC(O)CN(NC(=O)Nc1cc(C(F)(F)F)cc(C(F)(F)F)c1)C(=O)Nc1ccc(C(F)(F)F)cc1,MIC,KL21,Klebsiella pneumoniae,,,,,>300 µM
C/C=C/C/C=C/CCC(=O)[C@H]1O[C@H]1C(N)=O,MIC,SJ260 (F143),Escherichia coli,,,,,20 µg/mL
O=C(NNc1ncc(C(F)(F)F)cn1)Nc1cc(C(F)(F)F)cc(C(F)(F)F)c1,MIC,ES142,Escherichia coli,,,,,>300 µM
CCC(CC)[C@H](NC(C)=O)[C@@H]1[C@H](O)[C@@H](C(=O)O)C[C@H]1N=C(N)N,EC50,Influenza A/Virginia/2/88R (H3N2),Influenza A virus,MDCK,,,,<0.01 µM
Oc1ccccc1N=Cc1ccccc1,MIC99,ATCC 62066,Cryptococcus neoformans,,,,,2 µg/mL
Cn1cc(C(=O)NCc2ccc(Cl)cc2)c(=O)c2cc(CN3CCOCC3)ccc21,inhibition,MA varicella isolate,Varicella zoster virus,HFF,,2.4 µM,plaque count,90%
Fc1ccc(-n2c(=S)oc3ccc(F)cc3c2=S)cc1,MIC,My 235/80,Mycobacterium kansasii,,14 d,,,8 µM
C=Cc1cn([C@@H]2O[C@H](CO)[C@@H](O)[C@@H]2O)c(=O)[nH]c1=O,inhibition,Asahikawa,Varicella zoster virus,HELF,,1 µg/mL,plaque count,69%
C[C@@H](Oc1ccc(CNC(=O)c2c3n(c(=O)n2-c2ccc(OCC(F)(F)F)cc2)CCN(C(=O)c2ccc(Br)c(Cl)c2)C3)c(F)c1)C(N)=O,EC50,,Hepatitis B virus,HepG2.117,,,PCR,0.5–5 µM
COc1ccc2oc(=O)n(-c3ccc(F)cc3)c(=S)c2c1,MIC,My 235/80,Mycobacterium kansasii,,21 d,,,32 µM
O=C(O)c1cc(S(=O)(=O)[O-])ccc1O,inhibition,TYPE 3,Adenovirus,Human amnion AV3 cells,,10 µg/mL,cytopathic effect,10%

7 of the rows above, restated:

smiles | measure | strain or isolate | organism | cells | setting | tested at | method | value
C[C@@H](NC(=O)c1c2n(c(=O)n1C1CC1)CCN(C(=O)c1ccc(Br)c(Cl)c1)C2)c1ccccc1 | EC50 |  | Hepatitis B virus | HepG2.117 |  |  | PCR | 0.5–5 µM
CCC(C)CC(C)CCCCCCCCC(=O)N[C@H]1C[C@@H](O)[C@H](NCCN)NC(=O)[C@@H]2[C@@H](O)CCN2C(=O)[C@H]([C@H](O)CCN)NC(=O)[C@H]([C@H](O)[C@@H](O)c2ccc(O)cc2)NC(=O)[C@@H]2C[C@@H](O)CN2C(=O)[C@H]([C@@H](C)O)NC1=O | MIC | CBS 11545 | Cryptococcus gattii |  |  |  | broth dilution | 16 µg/mL
C=Cc1cn([C@@H]2O[C@H](CO)[C@@H](O)[C@@H]2O)c(=O)[nH]c1=O | inhibition | Asahikawa | Varicella zoster virus | HELF |  | 1 µg/mL | plaque count | 69%
O=c1oc2ccc(F)cc2c(=S)n1-c1cccc(F)c1 | MIC | 6509/96 | Mycobacterium kansasii |  | 14 d |  |  | 16 µM
COc1ccn2nc(C)c(C(=O)NCc3cc(F)c(N4CCC(c5ccc(OC(F)(F)F)cc5)CC4)c(F)c3)c2c1.Cl | inhibition |  | Mycobacterium avium |  |  | 0.019 µM | fluorescence | 85%
O=S(=O)([O-])c1ccc2c(O)cc(S(=O)(=O)[O-])cc2c1 | inhibition |  | Herpes simplex virus | Human amnion AV3 cells |  | 10 µg/mL | cytopathic effect | 0%
CCC(CC)[C@H](NC(C)=O)[C@@H]1[C@H](O)[C@@H](C(=O)O)C[C@H]1N=C(N)N | EC50 | Influenza A/Virginia/2/88R (H3N2) | Influenza A virus | MDCK |  |  |  | <0.01 µM